Measured values from patent US20240327454A1, “DETERGENT AND METHOD FOR PURIFYING A BIOTHERAPEUTIC” (MEDIMMUNE, LLC, priority 2020, published 2024).

Tests used:
Host Cell Protein (HCP) [1] = assay: HCP clearance, detergent spiked into cell harvest material before LambdaFabSelect column, HCP ELISA; design: species or system CHO
Host Cell Protein (HCP) [2] = assay: HCP clearance, detergent wash on LambdaFabSelect column, HCP ELISA; design: species or system CHO; settings: for HCP: LambdaFabSelect eluate; for Normalized Eluate Yield: normalized to 0.5M NaCl wash control

CCCCCCCCCCCCOCCOCCOCCOCCOCCOCCOCCOCCOCCO [Brij L9, 3,6,9,12,15,18,21,24,27-nonaoxanonatriacontan-1-ol]
HCP (Host Cell Protein (HCP) [1]; 2% detergent spike into cell harvest, LambdaFabSelect eluate): 1105 ng/mg
Normalized Eluate Yield (Host Cell Protein (HCP) [1]; 2% detergent spike, normalized to no detergent spike control): 1.0
HCP (Host Cell Protein (HCP) [2]; 1% detergent wash): 1924 ng/mg
Normalized Eluate Yield (Host Cell Protein (HCP) [2]; 1% detergent wash): 1.00
HCP (Host Cell Protein (HCP) [2]; 2% detergent wash): 1646 ng/mg
Normalized Eluate Yield (Host Cell Protein (HCP) [2]; 2% detergent wash): 1.01
